Laboratory results from the NIST ThermoML archive (doi:10.1021/je700746a).

Legend:
[1] = an = ratio of the nth substance listed; conditions: 101 kPa, Liquid; for mass density: Pycnometric method
[2] = 298.15 K; 101.33 kPa; Liquid

CCCCOP(=O)(OCCCC)OCCCC [tributyl phosphate] + CC(=O)CC(C)C
[1]
Conditions | kinematic viscosity, 283.1 K [m2/s] | kinematic viscosity, 293.15 K [m2/s] | kinematic viscosity, 303.15 K [m2/s] | kinematic viscosity, 313.15 K [m2/s] | kinematic viscosity, 323.15 K [m2/s] | mass density, 283.1 K [kg/m3] | mass density, 293.15 K [kg/m3] | mass density, 303.15 K [kg/m3] | mass density, 313.15 K [kg/m3] | mass density, 323.15 K [kg/m3]
a1 = 1.5 | 2.15e-06 | 1.78e-06 | 1.47e-06 | 1.23e-06 | 1.1e-06 | 915 | 908.9 | 903.4 | 898.5 | 894.2
a1 = 2.3 | 2.56e-06 | 2.1e-06 | 1.72e-06 | 1.41e-06 | 1.24e-06 | 926 | 921.8 | 916.8 | 911 | 904.4
a1 = 4 | 3.12e-06 | 2.55e-06 | 2.07e-06 | 1.68e-06 | 1.45e-06 | 948.5 | 941.8 | 935.3 | 929 | 922.9

CCCCOP(=O)(OCCCC)OCCCC [tributyl phosphate]
Conditions | viscosity [mPa·s]
[2] | 3.45
